Anti-infective test results gathered from many reports (values: NIAID ChemDB through PubChem).

All rows: whole-cell or culture tests; organism: HIV-1

ECn: concentration that inhibits the pathogen or its effect by n%. Fold resistance: result on the changed form divided by that on wild type. An empty or dashed field is not shown. Percent inhibition refers to the dose given; in toxicity tests it is the harm to the cells. Lines come from different laboratories, so protocols vary.

CCOc1cccc(Cc2cc(C3CCN(C[C@H]4CN([C@@H](C(=O)O)[C@H](C)CC)C[C@@H]4c4cccc(F)c4)CC3)n(CC)n2)c1 ; strain: BaL ; cells: HeLa ; read by: β-galactosidase ; read-out: EC90 ; value: <0.00014 µM
Cc1ccnc2c1NC(=O)c1cccnc1N2C1CC1 ; strain: Thiazolobenzimidazole-resistant (RT V108I) ; mutations: RT-V108I ; cells: CEM + CEM-SS ; read by: XTT ; read-out: fold resistance ; value: 30
N#CC[C@H](C1CCCC1)n1cc(-c2ncnc3[nH]ccc23)cn1 ; mutations: M184V ; cells: Primary T lymphocytes ; read by: p24 / ELISA ; read-out: EC90 ; value: 3.2 µM
Cc1ccnc2c1NC(=O)c1cccnc1N2C1CC1 ; strain: HXB2 ; mutations: RT-M41L T215Y ; cells: HT4 + HT4 LacZ-1 ; read by: plaque count ; read-out: EC50 ; value: 0.05 µM
O=C(O)P(=O)(O)O ; strain: IIIB ; tested at: 32 µM ; setting: 14 d ; cells: PBL ; read by: RT activity ; read-out: inhibition ; value: 72%
CC[C@H](C)[C@H](C(=O)O)N1C[C@H](CN2CCC(c3cc(Cc4cccc5ccccc45)nn3CC)CC2)[C@@H](c2cccc(F)c2)C1 ; strain: BaL ; setting: 50% human serum ; cells: HeLa ; read by: β-galactosidase ; read-out: EC90 ; value: 0.011 µM
N#Cc1cc2[nH]c3ccccc3c2n(-c2ccc([N+](=O)[O-])cc2)c1=O ; strain: Recombinant ; mutations: RT-M41L A62V S68N G112S M184V ; cells: HeLa ; read by: luciferase ; read-out: fold resistance ; value: >1
CC(C)=CCN1Cc2cc(Cl)cc3[nH]c(=S)n(c23)C[C@@H]1C ; cells: MT-4 ; read-out: EC95 ; value: 0.8 µM
CC(C)(C)NC(=O)[C@@H]1C[C@@H]2CCCC[C@@H]2CN1C[C@@H](O)[C@H](Cc1ccccc1)NC(=O)[C@H](CC(N)=O)NC(=O)c1ccc2ccccc2n1 ; strain: NL4-3 ; mutations: PR-M46I L63P V82T ; cells: MT-4 ; read by: p24 ; read-out: EC95 ; value: 0.025 µM
Cn1c2ccccc2c2c1cc(C#N)c(=O)n2-c1ccc([N+](=O)[O-])cc1 ; strain: NNRTI-resistant ; mutations: RT-Y181C ; cells: HeLa ; read by: luciferase ; read-out: fold resistance ; value: 1.4
CCCOc1ccc(Cc2cc(C3CCN(C[C@H]4CN([C@@H](C(=O)O)[C@H](C)CC)C[C@@H]4c4cccc(F)c4)CC3)n(CC)n2)cc1 ; strain: BaL ; cells: HeLa ; read by: β-galactosidase ; read-out: EC90 ; value: 0.0012 µM
Cc1cn([C@H]2C[C@H](N=[N+]=[N-])[C@@H](CO)O2)c(=O)[nH]c1=O ; strain: Dihydrocostatolide-resistant (RT-L100I) ; mutations: RT-L100I ; cells: CEM + CEM-SS ; read by: XTT ; read-out: fold resistance ; value: 0.6
CCCCCCCCCCCCCCCCOP(=O)(OC[C@H]1OC(O)[C@H](O)[C@@H](O)[C@@H]1O)OC[C@H]1O[C@@H](n2cc(C)c(=O)[nH]c2=O)C[C@@H]1N=[N+]=[N-] ; strain: LAV-Bru ; tested at: 0.2 µM ; setting: 22 d ; cells: CEM ; read by: RT activity ; read-out: inhibition ; value: 0%
Nc1nc(=O)n([C@@H]2CS[C@H](CO)O2)cc1F ; strain: Clinical isolate ; mutations: M184V ; cells: PBMC ; read by: single cycle / fluorescence ; read-out: EC50 ; value: >42 µM
c1cc(CN2CCCNCCNCCCNCC2)ccc1CN1CCCNCCNCCCNCC1 ; strain: JR-FL CLADE B R5 ; tested at: 0.5 µM ; cells: PBMC ; read by: p24 ; read-out: inhibition ; value: 0%
CC(C)(C)NC(=O)[C@@H]1C[C@@H]2CCCC[C@@H]2CN1C[C@@H](O)[C@H](Cc1ccccc1)NC(=O)[C@H](CC(N)=O)NC(=O)c1ccc2ccccc2n1 ; strain: NL4-3 ; mutations: PR-D30N M46I A71V ; cells: MT-4 ; read by: p24 ; read-out: EC90 ; value: 0.01 µM
Cc1cn([C@H]2C[C@H](N=[N+]=[N-])[C@@H](CO)O2)c(=O)[nH]c1=O ; strain: LAV-Bru ; tested at: 0.2 µM ; setting: 22 d ; cells: CEM ; read by: RT activity ; read-out: inhibition ; value: 0%
Fc1cccc(F)c1C1SCc2nc3ccccc3n21 ; strain: Costatolide-resistant (RT L100I T139I) ; mutations: RT-L100I T139I ; cells: CEM + CEM-SS ; read by: XTT ; read-out: fold resistance ; value: >27.6
CC[C@@H](C)[C@H](C(=O)O)N1C[C@H](CN2CCC(c3cc(Cc4cc(C(F)(F)F)cc(C(F)(F)F)c4)nn3CC)CC2)[C@@H](c2cccc(F)c2)C1 ; strain: BaL ; setting: 50% human serum ; cells: HeLa ; read by: β-galactosidase ; read-out: EC90 ; value: >0.3 µM
O=C1N(Cc2ccc(CO)cc2)[C@H](Cc2ccccc2)[C@H](O)[C@@H](O)[C@@H](Cc2ccccc2)N1Cc1ccc(CO)cc1 ; strain: HXB2 ; tested at: 0.14 µM ; cells: PBMC ; read by: p24 ; read-out: inhibition ; value: 90%
CCn1nc(Cc2ccc(Oc3ccccc3)cc2)cc1C1CCN(C[C@H]2CN([C@@H](C(=O)O)C(C)C)C[C@@H]2c2cccc(F)c2)CC1 ; strain: BaL ; setting: 50% human serum ; cells: HeLa ; read by: β-galactosidase ; read-out: EC90 ; value: >0.3 µM
O=C1N(Cc2ccc(CO)cc2)[C@H](Cc2ccccc2)[C@H](O)[C@@H](O)[C@@H](Cc2ccccc2)N1Cc1ccc(CO)cc1 ; strain: NL4-3 ; mutations: PR-M46I V82T ; cells: MT-4 ; read by: p24 ; read-out: EC95 ; value: 0.4 µM
Cc1cn([C@H]2C[C@H](N=[N+]=[N-])[C@@H](CO)O2)c(=O)[nH]c1=O ; strain: NRTI resistant ; mutations: RT-M41L D67N M184V L210W T215Y ; cells: HeLa ; read by: luciferase ; read-out: fold resistance ; value: 13.2
Cc1cn([C@H]2C[C@H](N=[N+]=[N-])[C@@H](COP(=O)(O)OC[C@H]3OC(O)[C@@H](O)[C@@H](O)[C@@H]3O)O2)c(=O)[nH]c1=O ; strain: LAV-Bru ; tested at: 1 µM ; setting: 7 d ; cells: U-937 ; read by: RT activity ; read-out: inhibition ; value: 0%
Nc1ccn([C@@H]2CS[C@H](CO)O2)c(=O)n1 ; strain: LAI ; cells: Primary T lymphocytes ; read by: p24 / ELISA ; read-out: EC90 ; value: 3.1 µM
Cc1cc(S(N)(=O)=O)ccc1NC(=O)COc1ccc(Cl)cc1C(=O)c1cc(Cl)cc(C#N)c1 ; strain: NNRTI-resistant (RT V106I E138K P236L) ; mutations: RT-V106I E138K P236L ; cells: MAGI ; read by: β-galactosidase ; read-out: fold resistance ; value: 165
CCn1nc(Cc2ccc(OC3CC3)cc2)cc1C1CCN(C[C@H]2CN([C@@H](C(=O)O)C3CCCCC3)C[C@@H]2c2cccc(F)c2)CC1 ; strain: BaL ; setting: 50% human serum ; cells: HeLa ; read by: β-galactosidase ; read-out: EC90 ; value: 0.033 µM
O=C1Nc2ccc(Cl)cc2[C@@](C#CC2CC2)(C(F)(F)F)O1 ; strain: LAI ; cells: Primary T lymphocytes ; read by: p24 / ELISA ; read-out: EC90 ; value: 0.2 µM
CC(C)=CCOc1cc(NC(=S)c2ccsc2C)ccc1Cl ; strain: Calanolide A-resistant (RT T139I) ; mutations: RT-T139I ; cells: CEM + CEM-SS ; read by: XTT ; read-out: fold resistance ; value: 0.6
CCn1nc(Cc2ccc(OC(F)F)cc2)cc1C1CCN(C[C@H]2CN([C@@H](C(=O)O)C(C)(C)C)C[C@@H]2c2cccc(F)c2)CC1 ; strain: BaL ; cells: HeLa ; read by: β-galactosidase ; read-out: EC90 ; value: <0.00014 µM

Repeating the final 2 entries:

compound	strain	mutations	tested at	setting	cells	read by	read-out	value
CC(C)=CCOc1cc(NC(=S)c2ccsc2C)ccc1Cl	Calanolide A-resistant (RT T139I)	RT-T139I			CEM + CEM-SS	XTT	fold resistance	0.6
CCn1nc(Cc2ccc(OC(F)F)cc2)cc1C1CCN(C[C@H]2CN([C@@H](C(=O)O)C(C)(C)C)C[C@@H]2c2cccc(F)c2)CC1	BaL				HeLa	β-galactosidase	EC90	<0.00014 µM